Measurements taken from paper PMC8565742 (PLoS Neglected Tropical Diseases, 2021).

By UniProt entry, the sequences of proteins in these tests, tags left out. Residues count along the entry.
UniProt A0A5K4F0X5, 1-2268: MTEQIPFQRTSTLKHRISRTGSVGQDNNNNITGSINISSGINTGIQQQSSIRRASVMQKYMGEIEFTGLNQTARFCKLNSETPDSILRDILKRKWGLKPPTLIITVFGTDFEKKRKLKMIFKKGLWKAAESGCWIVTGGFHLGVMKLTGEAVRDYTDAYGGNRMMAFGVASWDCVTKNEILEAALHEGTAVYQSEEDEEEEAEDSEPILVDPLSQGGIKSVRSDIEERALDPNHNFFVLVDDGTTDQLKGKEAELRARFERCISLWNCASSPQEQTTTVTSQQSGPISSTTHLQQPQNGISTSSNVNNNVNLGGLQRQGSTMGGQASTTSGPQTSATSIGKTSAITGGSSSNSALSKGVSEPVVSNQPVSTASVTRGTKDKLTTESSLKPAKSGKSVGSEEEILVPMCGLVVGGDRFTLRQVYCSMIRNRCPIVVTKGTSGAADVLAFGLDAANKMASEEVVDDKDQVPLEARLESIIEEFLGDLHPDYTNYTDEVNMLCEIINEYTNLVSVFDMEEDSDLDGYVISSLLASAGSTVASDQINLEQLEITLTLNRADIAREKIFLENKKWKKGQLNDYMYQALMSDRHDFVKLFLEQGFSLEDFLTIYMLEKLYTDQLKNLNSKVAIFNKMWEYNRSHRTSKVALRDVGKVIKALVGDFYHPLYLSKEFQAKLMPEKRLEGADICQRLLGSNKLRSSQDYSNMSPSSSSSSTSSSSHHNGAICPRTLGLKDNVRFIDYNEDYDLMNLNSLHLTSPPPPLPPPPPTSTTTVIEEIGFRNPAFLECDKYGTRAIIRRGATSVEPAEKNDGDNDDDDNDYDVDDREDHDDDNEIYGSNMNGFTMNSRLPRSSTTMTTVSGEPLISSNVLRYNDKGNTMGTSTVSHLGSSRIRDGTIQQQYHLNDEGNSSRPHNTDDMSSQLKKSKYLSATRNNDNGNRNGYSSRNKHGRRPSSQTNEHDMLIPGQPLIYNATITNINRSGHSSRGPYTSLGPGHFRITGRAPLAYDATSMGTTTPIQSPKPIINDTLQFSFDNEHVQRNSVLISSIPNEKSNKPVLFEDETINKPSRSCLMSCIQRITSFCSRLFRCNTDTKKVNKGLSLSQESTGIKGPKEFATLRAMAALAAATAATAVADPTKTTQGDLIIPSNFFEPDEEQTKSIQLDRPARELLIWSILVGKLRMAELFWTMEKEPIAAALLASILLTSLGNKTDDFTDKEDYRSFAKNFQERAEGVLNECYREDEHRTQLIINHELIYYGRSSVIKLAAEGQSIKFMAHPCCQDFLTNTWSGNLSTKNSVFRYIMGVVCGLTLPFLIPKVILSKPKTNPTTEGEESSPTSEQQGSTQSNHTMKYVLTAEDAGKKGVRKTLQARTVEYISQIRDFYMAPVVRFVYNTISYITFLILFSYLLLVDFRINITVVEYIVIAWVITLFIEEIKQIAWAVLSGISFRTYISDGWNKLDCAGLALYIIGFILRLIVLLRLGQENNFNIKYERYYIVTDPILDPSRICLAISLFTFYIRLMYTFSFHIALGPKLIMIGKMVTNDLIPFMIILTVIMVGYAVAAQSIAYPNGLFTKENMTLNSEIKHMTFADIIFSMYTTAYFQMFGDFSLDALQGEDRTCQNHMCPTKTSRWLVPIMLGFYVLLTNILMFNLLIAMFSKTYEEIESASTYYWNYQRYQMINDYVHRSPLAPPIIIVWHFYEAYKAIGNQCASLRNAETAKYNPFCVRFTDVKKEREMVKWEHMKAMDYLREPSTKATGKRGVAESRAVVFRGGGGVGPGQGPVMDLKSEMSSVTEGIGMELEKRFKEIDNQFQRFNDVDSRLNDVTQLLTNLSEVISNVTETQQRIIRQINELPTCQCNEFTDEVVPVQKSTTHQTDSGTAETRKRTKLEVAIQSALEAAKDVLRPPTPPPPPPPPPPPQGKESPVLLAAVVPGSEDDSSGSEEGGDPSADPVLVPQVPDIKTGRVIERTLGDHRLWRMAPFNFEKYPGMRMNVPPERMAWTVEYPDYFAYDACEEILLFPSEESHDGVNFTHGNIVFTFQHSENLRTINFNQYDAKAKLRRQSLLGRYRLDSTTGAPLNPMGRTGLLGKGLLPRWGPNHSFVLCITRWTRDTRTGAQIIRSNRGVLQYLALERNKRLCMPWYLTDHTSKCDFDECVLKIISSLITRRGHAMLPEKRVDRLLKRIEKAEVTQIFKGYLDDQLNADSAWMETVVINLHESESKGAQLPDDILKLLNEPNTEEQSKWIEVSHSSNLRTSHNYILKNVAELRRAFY

What was measured:
[1] = system: untransfected HEK293 cells; assay: Counterscreen, antagonist mode, Ca2+ signal in untransfected HEK cells; type: cell-based; settings: S3 Table, counterscreen titration
Description: (§1) HEK cells were transfected with cDNA (400μg/ml DNA) encoding Sm.TRPMPZQ using a Maxcyte STX electroporation system and incubated overnight at 37°C. This system is uniquely capabable of large scale transfections providing one batch of cells ready for large scale HTS [30]. Briefly, the HEK cells were resuspended at 10^8/ml in Maxcyte electroporation buffer. Plasmid DNA was added to the cells in buffer to achieve a concentration of 400 μg/ml from a stock of 5mg/ml (in TE buffer). This mixture was loaded into the appropriate cassette, inserted into the machine, and cells electroporated. Cells were then frozen to provide a single supply of transfected cells for all subsequent assays. On the day of the assays, cells were thawed in a 37°C waterbath, and resuspended in DMEM + 10% FBS and counted. The cells were pelleted by centrifugation at 170xg for 5 minutes. The media was aspirated, and the remaining pellet was resuspended in 1x HBSS with 20 mM HEPES and 1% DMSO to achieve 1.33x10^6cells/ml. This cell suspension was then dispensed at 3 μl/well to the 1536 well plates (Greiner Bio One part 789072) at a density of 4,000 cells/well. Measurements of fluorescence intensity (λex = 470 nm, λem = 535 nm) were made using a FLIPR (Molecular Devices FLIPR Tetra). A read of basal fluorescence values was made (5s) prior to addition of compounds or controls (30 nl). In both ‘agonist’ and ‘antagonist mode’, the total assay volume was 6μl (1% DMSO). […] Ligand performance was categorized using an algorithm based on the activity of the entire dataset to define a ‘hit-cutoff’ parameter for both agonist-mode and antagonist-mode screening. Any compound with greater percent activation than this cutoff was assigned as ‘active’ prior to titration and counter-screening. Titration assays were executed using the same reagents, protocols and detection systems, done as 10-point concentration-response curves, performed in triplicate. Counter-screening was performed using untransfected HEK293 cells for comparison with results testing the same compounds effect on cells expressing Sm.TRPMPZQ, with ATP used as the positive control. For each compound, activity was plotted against compound concentration and data were fitted with a sigmoidal function. In order to be considered a hit at this stage a compound must achieve a EC50<5 μM for agonists and IC50 <5 μM for antagonists. All compounds selected for titration were subjected to LC-MS analysis to confirm mass and sample purity. ChemAxon (https://www.chemaxon.com) academic licensing was provided for the use of Instant JChem (ver. 15.10.12.0) to perform compound mining of the libraries utilized in this effort.

Sm.TRPMPZQ [2] = target: T1, Sm.TRPMPZQ (Schistosoma mansoni, UniProt A0A5K4F0X5); settings: S3 Table, titration
Sm.TRPMPZQ [3] = target: T1, Sm.TRPMPZQ; settings: S3 Table; for Sm.TRPMPZQ AG Averaged Max % Response: titration
[4] = system: untransfected HEK293 cells; assay: Counterscreen, agonist mode, Ca2+ signal in untransfected HEK cells; type: cell-based; settings: S3 Table, counterscreen titration; for EC50: read-out: HEK AG Final EC50, unit inferred
Description: as §1

Compound	HEK ANT Averaged Max % Response [1] [%]	Sm.TRPMPZQ ANT Averaged Max % Response (Sm.TRPMPZQ [2]) [%]	Sm.TRPMPZQ AG Averaged Max % Response (Sm.TRPMPZQ [3]) [%]	HEK AG Averaged Max % Response [4] [%]	EC50 [4] [µM]	EC50 (Sm.TRPMPZQ [3]; read-out: Sm.TRPMPZQ AG Final EC50, 10-point titration in triplicate, unit inferred) [µM]
Clc1ccc(CSc2nccn2-c2cc(Cl)ccc2Cl)cc1	44.9029	58.5528	24.1721	56.3391	11.6	
COc1ccccc1C1CCN(C(=O)CSCc2cccc3ccccc23)CC1	34.8934	68.7144	8.38	11.239	> 12.4	
Cc1onc(-c2ccccc2)c1NC(=O)Nc1ccc(Oc2ncnc3cc(Cl)ccc23)nc1	63.2315	68.3651	4.6515	17.1587	> 12.4	
OC(CCCc1ccccc1)(c1ccc(Cl)cc1)c1ccc(Cl)cc1	50.5245	54.5461	16.1821	20.0472	> 12.4	
CC(C)(C)c1ccc(-c2noc(CSc3ccccn3)n2)cc1	53.8801	57.0798	10.3082	26.9092	> 12.4	
CCOC(=O)C1CCN(S(=O)(=O)c2ccc(CNC(=O)c3ccc(Cl)cc3)s2)CC1	59.4596	79.6384	4.125	11.0926	> 12.4	
Cc1ccc(SC(=O)c2cc(C)n(-c3c(Cl)cc(Cl)cc3Cl)n2)cc1	2.75	51.1564	3.979	16.7969	> 12.4	
N#Cc1ccc(S(=O)(=O)Oc2ccc(Oc3ccccc3)cc2)cc1	76.1689	68.1394	27.3158	45.6256	> 12.4	
CCOC(=O)CCc1ccc(OCc2ccccc2)c(I)c1	39.3914	55.1376	12.3764	19.7243	> 12.4	
O=C(NCc1cccs1)c1csc(Cc2c(Cl)cccc2Cl)n1	94.1833	97.1918	36.5206	32.1402	> 12.4	
Cn1c(=O)c(Cc2ccccc2)c(OC(=O)c2ccccc2)c2ccccc21	15.1137	69.1131	12.0938	9.728	> 12.4	
N#Cc1c(-c2cccs2)nc(Nc2ccccc2)[nH]c1=O	50.393	86.127	8.856	3.643	> 12.4	
O=C(CSc1nnc(C2CC2)n1-c1ccc(Cl)cc1)c1ccc(Cl)cc1	30.6603	66.4037	10.9034	16.4523	> 12.4	
N#Cc1cnc(Sc2nnc(-c3cccs3)n2-c2ccc(Cl)cc2)nc1N	20.8001	92.0422	9.525	25.6112	> 12.4	
Cc1noc(C)c1C(=O)Nc1ccc(-n2nc(C(F)(F)F)cc2-c2cccs2)cc1	78.2697	60.179	8.837	10.3502	> 12.4	
CN(C(=O)c1ccc(Cl)cc1)c1ccc(Cl)cc1C(=O)c1ccccc1	56.4545	93.9179	21.5053	67.3485	5.19	> 12.4
